Pooled drug test results. Numbers come from NIAID ChemDB, via PubChem.

Common to all: whole-cell or culture tests

Blank or dashed fields: not listed here. A number after MIC or MFC names an inhibition level or a share of isolates. Conditions beyond the fields shown may differ between rows. Percent inhibition refers to the dose given; in toxicity tests it is the harm to the cells.

smiles,organism,strain or isolate,read by,conditions,read-out,tested at,result
CCC[C@@H]1C[C@@H](C(=O)N[C@@H]([C@H]2O[C@H](SC)[C@H](O)[C@@H](O)[C@H]2O)[C@@H](C)O)N(C)C1,Mycobacterium avium,ATCC 25291,,,Median MIC,,96 µg/mL
CNC(=O)Nc1ccc(S(=O)(=O)Nc2cc(C)on2)cc1,Mycobacterium kansasii,6509/96 clinical isolate,broth dilution / absorbance,7 d,MIC100,,8 µM
CCn1cc(/C=N/Nc2nncs2)c2ccccc21,Mycobacterium bovis BCG,1173P2,broth dilution,24 h,MIC100,,125 µg/mL
Cc1cc(NS(=O)(=O)c2ccc(NC(=O)N3CCC3)cc2)no1,Mycobacterium kansasii,6509/96 clinical isolate,broth dilution / absorbance,14 d,MIC100,,16 µM
CC(=O)O[C@H]1C[C@@]2(C)[C@@H](C[C@@H](O)[C@H]3[C@@]4(C)CC[C@@H](O)[C@@H](C)[C@@H]4CC[C@@]32C)/C1=C(\CCC=C(C)C)C(=O)O,Mycobacterium avium,ATCC 25291,,,Mean MIC,,11 µg/mL
CCCCNC(=O)Nc1ccc(S(=O)(=O)Nc2cc(C)on2)cc1,Mycobacterium kansasii,235/80,broth dilution / absorbance,14 d,MIC100,,250 µM
NC[C@H]1O[C@H](O[C@H]2[C@H](O)[C@@H](O[C@H]3O[C@H](CO)[C@@H](O)[C@H](N)[C@H]3O)[C@H](N)C[C@@H]2N)[C@H](O)[C@@H](O)[C@@H]1O,Mycobacterium avium complex,Isolate C-50,,,MIC,,25 µg/mL
CCc1cc(C(N)=S)ccn1,Mycobacterium avium intracellulare,Serovar 8,,,inhibition,2.5 µg/mL,64%
CCN(CC)c1nc2c(s1)c1c(O)c3c(O)c(C)c4c(c32)C(=O)[C@@](C)(O/C=C/[C@H](OC)[C@@H](C)[C@@H](OC(C)=O)[C@H](C)[C@H](O)[C@H](C)[C@@H](O)[C@@H](C)/C=C/C=C(/C)C(=O)N1)O4,Mycobacterium avium,3350-4,,,MBC,,4 µg/mL
CC1CN(c2cc3c(cc2F)c(=O)c(C(=O)O)cn3C2CC2)CCN1,Mycobacterium smegmatis,KD1163 (GRYA+),,,MIC99,,0.1 µg/mL
CN(C)c1ccc(O)c2c1C[C@H]1C[C@H]3[C@H](N(C)C)C(=O)C(C(N)=O)=C(O)[C@@]3(O)C(=O)C1=C2O,Mycobacterium avium,ATCC 25291,,,Mean MIC,,28 µg/mL
CCC1CN(c2c(F)cc3c(=O)c(C(=O)O)cn(C4CC4)c3c2F)CCN1,Mycobacterium smegmatis,KD2012 (GYRA G89A),,,MIC99,,0.37 µg/mL
CO[C@H]1/C=C/O[C@@]2(C)Oc3c(C)c(O)c4c(O)c(c5c(c4c3C2=O)NC2(CCN(CC(C)C)CC2)N=5)=NC(=O)/C(C)=C\C=C\[C@H](C)[C@H](O)[C@@H](C)[C@@H](O)[C@@H](C)[C@H](OC(C)=O)[C@@H]1C,Mycobacterium avium complex,26 isolates (HIV+),,,MIC50,,0.25 µg/mL
Cc1cc(-c2cc3c(cc2F)c(=O)c(C(=O)O)cn3C2CC2)cc(C)n1,Mycoplasma hominis,37 strains,,,MIC50,,0.004 µg/mL
Cc1cccc(Cn2cc(/C=N/Nc3nncs3)c3ccccc32)c1,Mycobacterium bovis BCG,1173P2,broth dilution,48 h,MIC100,,62.5 µg/mL
NC[C@@H]1O[C@H](O[C@H]2[C@@H](O)[C@H](O[C@@H]3[C@@H](O)[C@H](N)C[C@H](N)[C@H]3O[C@H]3O[C@H](CO)[C@@H](O)[C@H](O)[C@H]3N)O[C@@H]2CO)[C@H](N)[C@@H](O)[C@@H]1O,Mycobacterium avium,ATCC 25291,,,Median MIC,,16 µg/mL
CC[C@H]1OC(=O)[C@H](C)[C@@H](O[C@H]2C[C@@](C)(OC)[C@@H](O)[C@H](C)O2)[C@H](C)[C@@H](O[C@@H]2O[C@H](C)C[C@H](N(C)C)[C@H]2O)[C@](C)(OC)C[C@@H](C)C(=O)[C@H](C)[C@@H](O)[C@]1(C)O,Mycobacterium abscessus,X1,broth dilution,,MIC,,0.25 µg/mL
COc1c(N2CC(C)NC(C)C2)c(F)cc2c(=O)c(C(=O)O)cn(C3CC3)c12,Mycobacterium smegmatis,KD2003 (GYRA D95G),,,MIC99,,0.71 µg/mL
CO[C@H]1/C=C/O[C@@]2(C)Oc3c(C)c(O)c4c(O)c(c(/C=N/N5CCN(C)CC5)c(O)c4c3C2=O)NC(=O)/C(C)=C\C=C\[C@H](C)[C@H](O)[C@@H](C)[C@@H](O)[C@@H](C)[C@H](OC(C)=O)[C@@H]1C,Mycobacterium avium,ATCC 25291,,,Mean MIC,,>8.5 µg/mL
CCC1CN(c2c(F)cc3c(=O)c(C(=O)O)cn(C4CC4)c3c2OC)CCN1,Mycobacterium smegmatis,KD1163 (GRYA+),,,MIC99,,0.029 µg/mL
NNC(=O)c1ccncc1,Mycobacterium kansasii,6509/96 clinical isolate,broth dilution / absorbance,7 d,MIC100,,8 µM
CCN1CCN(c2c(F)cc3c(=O)c(C(=O)O)cn(C4CC4)c3c2F)CC1,Mycobacterium smegmatis,KD2008 (GYRA G89C),,,MIC99,,3.2 µg/mL
CCCCCNC(=O)Nc1ccc(S(=O)(=O)Nc2cc(C)on2)cc1,Mycobacterium kansasii,6509/96 clinical isolate,broth dilution / absorbance,21 d,MIC100,,500 µM
CC(C)N1CCN(c2c(F)cc3c(=O)c(C(=O)O)cn(C4CC4)c3c2F)CC1,Mycobacterium smegmatis,KD2012 (GYRA G89A),,,MIC99,,1.6 µg/mL
Cc1cc(NS(=O)(=O)c2ccc(NC(=O)Nc3ccc(S(=O)(=O)Nc4cc(C)on4)cc3)cc2)no1,Mycobacterium kansasii,6509/96 clinical isolate,broth dilution / absorbance,21 d,MIC100,,4 µM
CN(C)c1cc(NC(=O)CNC(C)(C)C)c(O)c2c1C[C@H]1C[C@H]3[C@H](N(C)C)C(=O)C(C(N)=O)=C(O)[C@@]3(O)C(=O)C1=C2O,Mycobacterium massiliense,V29,broth dilution,,MIC,,1 µg/mL
Fc1cccc(Cn2cc(/C=N/Nc3nncs3)c3ccccc32)c1,Mycobacterium bovis BCG,1173P2,broth dilution,24 h,MIC100,,250 µg/mL

Again, the opening 3 rows:

smiles | organism | strain or isolate | read by | conditions | read-out | tested at | result
CCC[C@@H]1C[C@@H](C(=O)N[C@@H]([C@H]2O[C@H](SC)[C@H](O)[C@@H](O)[C@H]2O)[C@@H](C)O)N(C)C1 | Mycobacterium avium | ATCC 25291 |  |  | Median MIC |  | 96 µg/mL
CNC(=O)Nc1ccc(S(=O)(=O)Nc2cc(C)on2)cc1 | Mycobacterium kansasii | 6509/96 clinical isolate | broth dilution / absorbance | 7 d | MIC100 |  | 8 µM
CCn1cc(/C=N/Nc2nncs2)c2ccccc21 | Mycobacterium bovis BCG | 1173P2 | broth dilution | 24 h | MIC100 |  | 125 µg/mL